Results of unrelated studies side by side (data: NIAID ChemDB).

Common to all: tests on isolated targets; organism: Hepatitis C virus; target: NS5B polymerase; measure: IC50

a–b is a range or a potency band. An empty or dashed field is not shown. Neighbouring rows are from separate reports. ICn is the concentration giving n% inhibition.

structure,strain,result
CC(NC(=O)c1ccc2c(c1)nc(-c1ccoc1)n2C1CCCCC1)C(=O)Nc1cccc(OCC(=O)O)c1,-,0.5–5 µM
O=C(O)/C(=C/c1ccc(-c2ccccc2)o1)NC(=O)c1cccnc1,-,<10 µM
O=C(Cn1nccc1C(=O)N[C@H]1CCCC[C@@H]1OCc1ccccc1)Nc1ccccc1OCc1ccccc1,-,0.1–1 µM
Cc1ccc(Nn2c(=O)c(C3=NS(=O)(=O)c4ccccc4N3)c(O)c3cccnc32)cc1,genotype 1b,>5 µM
O=C(NC1(C(=O)Nc2ccc(Cl)nc2)CCCC1)c1ccc2c(c1)nc(-c1ccoc1)n2C1CCCCC1,-,0.5–5 µM
CCCCOC(=O)c1ccc(CCCC)nc1N(C)c1ccc(N2CCOCC2)cc1,-,3 µg/mL
O=C(O)/C(=C/c1ccc(-c2ccccc2)o1)NC(=O)c1ccco1,-,<10 µM
CCCC1(CC(=O)O)CCCC2c3c(C#N)ccc(C(N)=O)c3NC21,-,>33 µM
CCSc1nc(Nc2ccc(N(CC)CC)cc2)cc(N2CCN(C(=O)c3ccncc3)CC2)n1,-,3 µg/mL
O=C(Cn1nc(C(=O)O)cc1C(=O)NC1C2CC3CC(C2)CC1C3)N[C@H]1CCCCC1OCc1ccccc1,-,≥1 µM
CCCCc1ccc(C(=O)O)c(N(C)c2ccc(N3CCNCC3)cc2)n1,-,3 µg/mL
CC(=O)Nc1ccc(-c2ccc(O)cc2)c(COc2ccc(C3Nc4cc(C(=O)O)ccc4N3C3CCCCC3)cc2)c1,-,0.05 µM
CCCC1(CC(=O)O)CCCC2c3c(C#N)ccc(F)c3NC21,-,2 µM
CC(NC(=O)c1ccc2c(c1)nc(-c1ccoc1)n2C1CCCCC1)C(=O)Nc1cccc(-c2ccc(C(=O)O)o2)c1,-,<0.5 µM
O=C(Cn1nc(NC(=O)C(F)(F)F)cc1C(=O)Nc1ccccc1OCc1ccccc1)N[C@H]1CCCC[C@@H]1OCc1ccccc1,-,0.1–1 µM
Cc1ccccc1C(=O)N/C(=C\c1ccc(-c2ccccc2Cl)s1)C(=O)O,-,11–30 µM
COC(=O)OC(c1oc(=O)oc1C)C1NC(=S)NC(C)=C1C(=O)OCCc1cccc(Cl)c1,-,0.8 µM
CC(NC(=O)c1ccc2c(c1)nc(-c1ccoc1)n2C1CCCCC1)C(=O)Nc1ccc(Cl)c(/C=C/C(=O)O)c1,-,0.5–5 µM
O=C(Cn1nc(C(=O)NCc2ccncc2)cc1C(=O)N[C@H]1CCCC[C@@H]1OCc1ccccc1)Nc1ccccc1OCc1ccccc1,-,0.1–1 µM
O=C(O)/C(=C/c1ccc(-c2ccccc2Cl)s1)NC(=O)c1cc(O)ccc1O,-,>30 µM
C[C@@H](NC(=O)c1ccc2c(c1)nc(-c1ccoc1)n2C1CCCCC1)C(=O)Nc1nc(-c2ccc(OCC(=O)O)cc2)cs1,-,0.5–5 µM
CCCN(CCC)CCSc1nnc2c(n1)[nH]c1ccccc12,-,0.056–83.5 µM
O=C(Cn1nc(NS(=O)(=O)c2ccccc2)cc1C(=O)N[C@H]1CCCC[C@@H]1OCc1ccccc1)N[C@H]1CCCC[C@@H]1OCc1ccccc1,-,0.05–0.1 µM
CCCC1(CC(=O)O)CCCC2c3ccc(F)c(F)c3NC21,-,>33 µM
Cc1oc(-c2ccc(NC(=O)[C@@H](C)NC(=O)c3ccc4c(c3)nc(-c3ccoc3)n4C3CCCCC3)cc2)cc1C(=O)O,-,0.5–5 µM
O=C(NC(Cc1c[nH]c2ccc(O)cc12)C(=O)O)c1ccc2c(c1)nc(-c1ccoc1)n2C1CCCCC1,-,0.25 µM
O=C(O)/C(=C/c1ccc(-c2ccccc2)o1)NC(=O)c1ccccc1O,-,11–30 µM
CCCCSc1nc(Nc2ccc(N(CC)CC)cc2)cc(N2CCN(C(=O)c3ncccn3)CC2)n1,-,3 µg/mL
CC1=C(C(=O)OCc2ccc3ncsc3c2)CNC(=S)N1,-,0.5 µM
O=C(O)/C=C/c1ccc(NC(=O)C2(NC(=O)c3ccc4c(c3)nc(-c3ccc(OCC(=O)NCCNC(=O)c5ccc(C(=O)c6ccccc6)cc5)cc3)n4C3CCCCC3)CCN(C(=O)CCCCC3SC[C@H]4NC(=O)N[C@@H]34)CC2)cc1,-,5–25 µM
COC(=O)OC(C1COC(=O)O1)C1NC(=S)NC(C)=C1C(=O)OCCc1cccc(Cl)c1,-,0.9 µM
O=C(O)/C(=C/c1ccc(-c2ccccc2Cl)s1)NC(=O)c1ccco1,-,<10 µM
CCC[C@]1(CC(=O)O)OCCc2c1[nH]c1c(C)ccc(C#N)c21,167-A1 genotype 3A,1.8 µM
O=C(O)/C(=C/c1ccc(-c2ccccc2)o1)NC(=O)c1cccc(O)c1,-,>30 µM
CC1=C(C(=O)OCCCc2ccsc2F)C(CO)NC(=S)N1,-,6.3 µM
N#Cc1c(Cl)cc(Cl)cc1Oc1ccccc1C(=O)CC(=O)C(=O)O,-,0.056–83.5 µM
CCc1nc(N2CCN(C(=O)c3ccccc3)CC2)cc(N(C)c2ccc(N(C)Cc3ccccc3)cc2)n1,-,3 µg/mL

3 of the rows above, restated:

| structure | strain | result |
|---|---|---|
| Cc1ccc(Nn2c(=O)c(C3=NS(=O)(=O)c4ccccc4N3)c(O)c3cccnc32)cc1 | genotype 1b | >5 µM |
| CC(NC(=O)c1ccc2c(c1)nc(-c1ccoc1)n2C1CCCCC1)C(=O)Nc1cccc(-c2ccc(C(=O)O)o2)c1 | - | <0.5 µM |
| O=C(O)/C=C/c1ccc(NC(=O)C2(NC(=O)c3ccc4c(c3)nc(-c3ccc(OCC(=O)NCCNC(=O)c5ccc(C(=O)c6ccccc6)cc5)cc3)n4C3CCCCC3)CCN(C(=O)CCCCC3SC[C@H]4NC(=O)N[C@@H]34)CC2)cc1 | - | 5–25 µM |